Source: patent US6015881 (dated 2000)

Test: general procedure: hybrid (solid and solution phase) peptide synthesis; 2-chlorotrityl chloride resin (super acid sensitive); HBTU/HOBT/DIEA (solid phase); HBTU/HOAT/EtPr2N (solution phase)
[1] = late stage modification step, HPLC

Row | Substance | step yield (coupling step) [%] | final HPLC purity (coupling step, HPLC) [A %] | step yield (late stage modification step) [%] | crude HPLC purity [1] [A %] | final HPLC purity [1] [A %]
1 | Fmoc-Tyr(tBu)-Thr(tBu)-Ser(tBu)-Leu-Ile-His(trt)-Ser(tBu)-Leu-Ile-Glu(OtBu)-Glu(OtBu)-Ser(tBu)-Gln(trt)-Asn(trt)- Gln(trt)-Gln-Glu(OtBu)-Lys(Boc)-Asn(trt)-Glu(OtBu)-Gln(trt)-Glu(OtBu)-Leu- Leu-Glu(OtBu)-Leu-Asp(tBu)-Lys(Boc)-Trp(Boc) | 88 | 85 |  |  | 
2 | Ac-Tyr(tBu)-Thr(tBu)-Ser(tBu)-Leu-Ile-His(trt)-Ser(tBu)-Leu-Ile-Glu(OtBu)-Glu(OtBu)-Ser(tBu)-Gln(trt)-Asn(trt)-Gln(trt)- Gln-Glu(OtBu)-Lys(Boc)-Asn(trt)-Glu(OtBu)-Gln(trt)-Glu(OtBu)-Leu-Leu-Glu(OtBu)-Leu-Asp(tBu)-Lys(Boc)-Trp(Boc)-Ala | 96 | 92 | 91 | 90 | 
3 | H-Tyr(tBu)-Thr(tBu)-Ser(tBu)-Leu-Ile-His(trt)-Ser(tBu)-Leu-Ile-Glu(OtBu)-Glu(OtBu)-Ser(tBu)-Gln(trt)-Asn(trt)-Gln(trt)- Gln-Glu(OtBu)-Lys(Boc)-Asn(trt)-Glu(OtBu)-Gln(trt)-Glu(OtBu)-Leu-Leu-Glu(OtBu)-Leu-Asp(tBu)-Lys(Boc)-Trp(Boc)-Ala |  |  | 95 |  | 90
